In the test the target is polyclonal antibody against adenovirus used in the neutralisation titration of FIG. 1B. Kind of test: cell-based or functional assay.

B1: endogenous TRIM21 in human cells (HeLa) (receptor)
chain: MASAARLTMMWEEVTCPICLDPFVEPVSIECGHSFCQECISQVGKGGGSVCPVCRQRFLLKNLRPNRQLANMVNNLKEISQEAREGTQGERCAVHGERLHLFCEKDGKALCWVCAQSRKHRDHAMVPLEEAAQEYQEKLQVALGELRRKQELAEKLEVEIAIKRADWKKTVETQKSRIHAEFVQQKNFLVEEEQRQLQELEKDEREQLRILGEKEAKLAQQSQALQELISELDRRCHSSALELLQEVIIVLERSESWNLKDLDITSPELRSVCHVPGLKKMLRTCAVHITLDPDTANPWLILSEDRRQVRLGDTQQSIPGNEERFDSYPMVLGAQHFHSGKHYWEVDVTGKEAWDLGVCRDSVRRKGHFLLSSKSGFWTIWLWNKQKYEAGTYPQTPLHLQVPPCQVGIFLDYEAGMVSFYNITDHGSLIYSFSECAFTGPLRPFFSPGFNDGGKNTAPLTLCPLNIGSQGSTDY
On to B1, for which the “adenovirus infection (percentage of GFP positive cells), fold decrease due to antibody” value was greater than 50 fold; the “adenovirus infection, fold decrease due to antibody in cells depleted of TRIM21” value was roughly 3 fold; the “adenovirus infection, fold decrease due to antibody in cells pre-incubated with IFNα” value is greater than 230 fold.

Values taken from US20130202593A1 (MEDICAL RESEARCH COUNCIL, published 2013).
